Results of unrelated studies side by side (data: NIAID ChemDB).

All rows: toxicity to cultured cells; cells: MCF-7; read-out: CC50

Blank or dashed fields: not listed here. Rows are shuffled and stem from different studies. CCn is the concentration with n% toxicity to the cells.

structure	method	value
O=C1Sc2nc3c(c(=S)n2C/C1=C/c1ccccc1)C1=C(CCC/C1=C\c1ccncc1)C(c1ccncc1)S3	MTT	25.6 µM
COc1c(C)c(C)c2[nH]c3ccccc3c2c1O	resazurin	8.4 µg/mL
Cc1cc2c(O[C@H]3O[C@H](CO)[C@@H](O)[C@H]3O)ccc(O)c2c(=O)o1	MTT	>40 µg/mL
C[C@@H]1CC[C@H]2C3=C(C[C@H](O)[C@@]2(O)C1)C(=O)c1c(O)cccc1C3=O	resazurin	3.4 µM
CCOC1N=C2C3=C(N=C(C)N2N1c1ccccc1)SC(c1ccncc1)C1=C3/C(=C/c2ccncc2)CCC1	MTT	13.4 µM
COc1cc2c3c(cc(O)c2cc1C)C(C)(C)C(=O)OC3=O	absorbance	>10 µM
CC(C)=C[C@@H](C[C@@H](C)[C@H]1CC[C@@]2(C)[C@@H]3[C@@H](OC(=O)c4ccccc4)C=C4[C@@H](CC[C@H](OC(=O)c5ccccc5)C4(C)C)[C@]3(C)CC[C@]12C)OC(=O)c1ccccc1	MTT	>133.3 µM
CC1(C)CCC[C@]2(C)[C@H]3C[C@@H](C4=CCOC4=O)CC3=CC[C@@H]12	absorbance	22.5 µM
CC(=O)O[C@@H](C/C=C(\C)C(=O)O)[C@@H](C)[C@H]1CC[C@@]2(C)C3=C(CC[C@]12C)[C@@]1(C)CCC(=O)C(C)(C)C1CC3	resazurin	>50 µg/mL
Cc1ncc(-c2c[nH]c3ccccc23)o1	resazurin	>50 µg/mL
NC(=O)c1[nH]c2c(c1N)C1=C(CCC/C1=C\c1ccncc1)C(c1ccncc1)S2	MTT	>50 µM
CC[C@H](C)C(=O)c1c(O)cc(O)cc1OC/C=C(\C)CCC=C(C)C	sulforhodamine	12.5 µM
O=c1sc2nc3c(c(=S)n2/c1=C/c1ccc(Cl)cc1)C1=C(CCC/C1=C\c1ccncc1)C(c1ccncc1)S3	MTT	33.9 µM
CCc1nc(CCC(=O)O)cnc1CCC(=O)O	MTT	>40 µg/mL
C/C(=N\NC(=O)c1ccc(Cl)cc1)c1cccc(/C(C)=N/NC(=O)c2ccc(Cl)cc2)n1	MTT	>100 µM
CC(=O)O[C@@H](C/C=C(\C)C(=O)O)[C@@H](C)[C@H]1CC[C@@]2(C)C3=C(CC[C@]12C)[C@@]1(C)CC[C@@H](O)C(C)(C)C1CC3	resazurin	40.15 µg/mL
COC1=NC=C[C@@H]2O[C@@H]3SC(OC)=NC=C[C@@H]3O[C@@H]2S1	sulforhodamine	69.4 µg/mL
O=C1/C(=C/c2ccc(-c3cc(C(F)(F)F)ccc3Cl)o2)SC(=S)N1Cc1ccc(F)cc1	MTT	1.2 µM
N=c1c2c(ncn1Nc1ccccc1)SC(c1ccncc1)C1=C2/C(=C/c2ccncc2)CCC1	MTT	12.8 µM
O=C(O)c1ccc(-c2ccc(/C=C3\SC(=S)N(CCc4ccc(Cl)c(Cl)c4)C3=O)o2)cc1O	MTT	>100 µM
Br.CN1C=CN(c2cccc(N3C=CN(C)C3)n2)C1	sulforhodamine / absorbance	>30 µM
Nc1ccn([C@H]2CC[C@@H](CO)O2)c(=O)n1		610 µM
C/C(=C\C[C@H](O)[C@@H](C)[C@H]1CC[C@@]2(C)C3=C(CC[C@]12C)[C@@]1(C)CC[C@H](O)C(C)(C)C1CC3)C(=O)O	resazurin	>50 µg/mL
O=c1[nH]c(=S)[nH]c2c3c([nH]c12)SC(c1ccncc1)C1=C3/C(=C/c2ccncc2)CCC1	MTT	14.3 µM
O=C1N=C(N2CCOCC2)S/C1=C\c1ccc(-c2ccc(C(=O)O)c(O)c2)o1	MTT	21 µM
CCOC(=O)c1[nH]c2c(c1NC(N)=S)C1=C(CCC/C1=C\c1ccncc1)C(c1ccncc1)S2	MTT	>50 µM
COc1ccc2[nH]c3c(C)c(C)c(OC)c(O)c3c2c1	resazurin	9.8 µg/mL

The first 4 rows once more:

structure,method,value
O=C1Sc2nc3c(c(=S)n2C/C1=C/c1ccccc1)C1=C(CCC/C1=C\c1ccncc1)C(c1ccncc1)S3,MTT,25.6 µM
COc1c(C)c(C)c2[nH]c3ccccc3c2c1O,resazurin,8.4 µg/mL
Cc1cc2c(O[C@H]3O[C@H](CO)[C@@H](O)[C@H]3O)ccc(O)c2c(=O)o1,MTT,>40 µg/mL
C[C@@H]1CC[C@H]2C3=C(C[C@H](O)[C@@]2(O)C1)C(=O)c1c(O)cccc1C3=O,resazurin,3.4 µM